In this experiment the target is T1, human H4 receptor (Homo sapiens, UniProt Q9H3N8).
T1 construct: expressed in transfected cells
Description: Binding Assay on Recombinant Human Histamine H4 Receptor. The note with it: Table 2; [3H] histamine competition binding, membranes of SK-N-MC cells transfected with human H4 receptor; average of results.

Chains of the proteins cited; added tags and fusions are not shown. Lines headed by an entry give the natural chain unless they say otherwise; changes in a name come on top.
UniProt Q9H3N8: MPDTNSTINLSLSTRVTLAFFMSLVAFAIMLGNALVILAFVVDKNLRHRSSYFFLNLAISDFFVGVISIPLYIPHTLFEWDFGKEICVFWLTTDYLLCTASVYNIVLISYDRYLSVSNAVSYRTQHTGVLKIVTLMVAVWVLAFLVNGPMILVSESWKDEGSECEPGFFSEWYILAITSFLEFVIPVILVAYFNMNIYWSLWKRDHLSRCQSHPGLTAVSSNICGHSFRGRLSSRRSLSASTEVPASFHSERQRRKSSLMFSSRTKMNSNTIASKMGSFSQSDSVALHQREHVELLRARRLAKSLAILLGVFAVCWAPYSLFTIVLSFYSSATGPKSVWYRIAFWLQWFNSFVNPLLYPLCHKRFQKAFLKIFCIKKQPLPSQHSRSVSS

Molecules are shown by their SMILES.

In general, Ki refers to a measure of affinity in units of concentration, obtained from inhibition or displacement. As for `CN[C@H]1CCN(c2cc(C(C)(C)C)nc(N)n2)C1` [Example 130, (S)-4-tert-Butyl-6-(3-methylamino-pyrrolidin-1-yl)-pyrimidin-2-ylamine], the Ki turned out to be 8 nM.

The values above are taken from patent US8716475B2, “2-aminopyrimidine modulators of the histamine H4 receptor” (Janssen Pharmaceutica NV, priority 2007, dated 2014).
